Consider 19 molecules from patent publication US20230303664A1 (MAX PLANCK GESELLSCHAFT ZUR F RDERUNG DER WISSENSCHAFTEN E V, published 2023).

The labels stand for the following.
B1: Re25H10 (VHH)
VHH: QVQLVESGGGLVQPGGSLRLSCAASGFTFSSSAMSWARQAPGKGLEWVSTISEDGSTYYADSMKGRFTISRDNAKNTVYLQMNSLKPEDTAAYYCATSTEPRTVVAGWGDYLGQGTQVTVSS
B2: Re5D06R28D (VHH)
VHH: QVQLVESGGGLVQPGGSLRLSCAISGSTLDYYAMGWFREAPGKEREGVARWRNNDGSTNYADSVKGRFTMSRDNAKDTYYLQMNSLEPEDTADYYCAYGPLTKYGDEWHWPYEYDYWGQGTQVTVSS
B3: Re9G05 (VHH)
VHH: QVQLVESGGGLVQPGGSLRLSCAVSGNISSITAWDWHRQAPGKQRELVAHITSRGDTMYLDSVKGRFAISRDHAKNTLSLQMNSLKPEDTAVYYCYLRTFGPPYDYWGQGTQVTVSS
B4: Re7A01 (VHH)
VHH: QVQLVESGGGLVQAGGSLRLSCAASGRTFSSYAMGWFRQAPGKEREFVATISFSGSTSYAGHVKGRFTISRDNAKNTVYLQMNSLKPEDTAVYYCHAVTRASDQDGGMDYWGQGTQVTVSS
B5: Re21B09 (VHH)
VHH: QVQLVESGGGLVQPGGSLRLSCAASGFTLDNYAIGWFRQAPGKEREGVSCIRSSDGSTYYADSVKGRFTISKDNAKNTVYLQMNSLKPEDTAVYYCATDGTFNPPCDDLYSWYFPERQGTQVTVSS
B6: Re5B06 (VHH)
VHH: QVQLVESGGGLVQPGGSLRLSCAASGSIRSIYATVWFRQAPGKEHEWVGSITSSNVTTYADSVKGRFTISRDNAKKTVYLQMNSLKPEDTALYYCNVHFASEYSDYAQIQGQGTQVTVSS
B7: Re8E12 (VHH)
VHH: QVQLVESGGGSVQPGGSLRLSCKVSGFTSDVDLRNYLVSWNRQAPGKERELVAAITPTVISGGNTNYADSVKGRFTISRDYSKSTVYLQMNSLNPEDTAVYYCKVGVYWGQGTQVTVSS
B8: Re8F03 (VHH)
VHH: B7 VHH with S11L, R19T, F27L, D30Y, N41Y, A44G, V59A, S61T, N64S, Y102S
B9: Re22D04 (VHH)
VHH: QVQLVESGGGLVQTGGSLRLSCAASGRTFSDDAMGWFRQAPGKERDVVAALGWAGVSTYYADSVKGRFGISRDNAKNTVYLQMSSLKPEDTAVYYCAAAPSVAHARLGEWAYWGKGTQVTVSS
B10: Re11F11 (VHH)
VHH: QVQLVESGGGLVQPGGSLRLSCAASGFTFSNYHMSWYRQAPGKGRELVADITSGGDYTHYADSVKGRFTVSRDNPKNTLYLQMNSLKPEDTAVYHCHVRIFGPGFPVDYRGQGTQVTVSS
B11: Re11E11 (VHH)
VHH: QVQLVESGGGSVEAGGSLRLSCAASGRTFNNYNIVWFRQAPGKEREFVAAINWNGGSTSYANSVKGRFAVSRDNAKNTVYLQMNNLKHEDTAEYLCYTVGPEGDYWGQGTQVTVSS
B12: Re11C10 (VHH)
VHH: B11 VHH with F29L, N30D, I34A, G56S, S57N, A61G
B13: Re6D09 (VHH)
VHH: B11 VHH with I34M, N62A, R72I, V79L
B14: Re9C07 (VHH)
VHH: QVQLVESGGGLVQAGGSLRLSCAASGRTFSRYAMGWFRQAPGKEREFVAAITWNADTTYYADSVKGRFTISRDNAKNTVYLQMNSLKPEDTAVYYCAAGGNHYYSRSYYSSLEYDHWGQGTQVTVSS
B15: Re8C06 (VHH)
VHH: QVQLVESGGGLVQAGGSLRLSCAASGRTDTIYNMGWFRQAPGKEREFVAAISWSDGKTTFADSVKGRFTISRDNAKNTVYLQMNSLKPEDTANYYCAAKAFLVAGRSLEEYDYSGQGTQVTVSS
B16: Re11G09 (VHH)
VHH: QVQLVESGGGLVHTGGSLRLSCAASGSIFNIYRMAWYRQAPGKQREKVAIITTYGLTDYADSVKGRFTISRDNAKNTTYLQMNSLKPDDTAVYYCNTDPPDLGPGYWGQGTQVTVSS
B17: Re5C01 (VHH)
VHH: QVQLVESGGGLVQAGGSLRLSCGVSGRTFSSYAMGWFRQAPGKEREFVATISWSGGTTNYAHSVKGRFTISRDNAKNTVYLQMNSLKVEDTAVYYCYAVSSGSDYDGGMDYWGKGTQVTVSS
B18: Re11F07 (VHH)
VHH: QVQLVESGGGLVQAGGSLRLSCAASGRAFSSGTMGWFRQAPGKEREFVATISWSGGSTSYARSVKGRFTISGDNAENTVYLQMNSLKPEDTAVYYCYAVSSGSDYDGGMDYWGKGTLVTVSS
B19: Re9G12 (VHH)
VHH: QVQLVESGGGLVQAGGSLRLSCAASGRTFSSYVMGWFRQAPGKEREFVAHISWSGDSTYYADSVKGRFTIFRDNAKNTAYLQMNSLKPEDTAVYYCAADRGASYYYTWASEYNYWGQGTQVTVSS

Positions count from the first letter of the chain named.

In one experiment the target is SARS-CoV-2 spike protein of the patient-derived virus strain (D614G) (SARS-CoV-2, UniProt P0DTC2).
Test: not given
For the molecule B1, the binding result was “binds”.
The same measure, in the same setting: the value for B2 was “binds”; that for B3 was “binds”.
Still for that read-out and setting: to B4 belongs “binds”.
Still for that read-out and setting: to B5 belongs “binds”; to B6, “binds”; to B7, “binds”.
Regarding B8, the binding result is “binds”.
On the same count and under the same terms, the value for B9 was “binds”.
For B10, the binding result is recorded as “binds”.
The same measure, in the same setting: the value for B11 was “binds”; that for B12 was “binds”; that for B13 was “binds”.
Same read-out and setting: to B14 belongs “binds”.
Consider B15, for which the binding result is listed as “binds”.
Still for that read-out and setting: to B16 belongs “binds”; to B17, “binds”.
Same read-out and setting: to B18 belongs “binds”.
Consider B19, for which the binding result is “binds”.

In another experiment the target is SARS-CoV-2 spike protein (SARS-CoV-2, UniProt P0DTC2 14-1273). As to the kind of experiment: IF, spike-transfected HeLa cells.
B13: the binding result was “binds”.
